A mixed list of measured activities; the numbers were collected in NIAID ChemDB.

All rows: tests in culture; agent: Candida albicans; read-out: MIC80

Neighbouring rows are from separate reports. An empty or dashed field is not shown. A number after MIC or MFC names an inhibition level or a share of isolates.

compound | strain or isolate | read by | setting | result
O=C(O/N=C(\CCn1ccnc1)c1ccccc1)c1ccccc1Cl | - | agar diffusion | - | 0.7069 µg/mL
Cc1ccc(-c2c3c(N)c4c(nc3nc3c2c(C)nn3-c2ccccc2)CCC4)cc1 | CCC 127 | broth dilution / absorbance | - | 31.2 µg/mL
CC(C)CCCCCCNC1NCCC2c3ccccc3CCN12 | NFI0124 | - | - | 4 µg/mL
Cc1ccc(/C(CCn2ccnc2)=N\O)cc1 | - | agar diffusion | - | 0.5456 µg/mL
CCCCN(Cc1cn(Cc2ccc(C)cc2)nn1)CC(O)(Cn1cncn1)c1ccc(F)cc1F | Y0109 | - | - | <0.125 µg/mL
CCN1C(=O)C=CC1=O | ATCC 10231 | broth dilution | - | 2 µg/mL
C[C@@H](N1CCN(Cc2cn(Cc3ccc(F)cc3F)c3ccc(C#N)cc23)CC1)[C@](O)(Cn1cncn1)c1ccc(F)cc1F | ATCC MYA-1003 | resazurin | - | 2 µg/mL
N=C(N)c1ccc(OCCCCCO)cc1 | A39 | - | - | >100 µg/mL
CN(CC(=O)Nc1ccccc1[N+](=O)[O-])CC(O)(Cn1cncn1)c1ccc(F)cc1F | - | - | - | 4 µg/mL
CN(C)CCN1C(=O)C=CC1=O | ATCC 10231 | broth dilution | - | 128 µg/mL
CCCCN(Cc1cn(Cc2ccc(Cl)cc2)nn1)CC(O)(Cn1cncn1)c1ccc(F)cc1F | SC5314 | - | - | <0.125 µg/mL
CCOC(=O)c1nc(NC(=O)c2nc(NC(=O)c3cc([N+](=O)[O-])cn3C)cn2C)cn1C | 102 (drug resistant) | broth dilution | - | >200 µg/mL
CCCCN(Cc1cn(Cc2cccc(C#N)c2)nn1)CC(O)(Cn1cncn1)c1ccc(F)cc1F | Y0109 | - | - | 16 µg/mL
C[C@@H](N1CCN(Cc2cn(Cc3ccc(F)cc3F)c3cc(N=[N+]=[N-])ccc23)CC1)[C@](O)(Cn1cncn1)c1ccc(F)cc1F | ATCC 64548 | resazurin | - | 0.125 µg/mL
Oc1ccc2c(c1)CCc1ccc(cc1)Oc1cc(ccc1O)CCc1cccc(O)c1-2 | BWP17-DPP3-GFP | broth dilution | - | 16 µg/mL
CCCCN(Cc1cn(Cc2ccc([N+](=O)[O-])cc2)nn1)CC(O)(Cn1cncn1)c1ccc(F)cc1F | SC5314 | - | - | 2 µg/mL
CCCCCCCCOc1ccc(-c2ccc(C(=O)NC3CC(NCCN)CNC(=O)[C@@H]4[C@@H](O)[C@@H](C)CN4C(=O)[C@@H](CO)NC(=O)[C@H]([C@H](O)Cc4ccccc4)NC(=O)[C@@H]4C[C@@H](O)CN4C(=O)[C@H]([C@@H](C)O)NC3=O)cc2)cc1 | 444 (fluconazole-susceptible) | - | - | 0.05 µg/mL
CCCCN(Cc1cn(Cc2ccccc2[N+](=O)[O-])nn1)CC(O)(Cn1cncn1)c1ccc(F)cc1F | Y0109 | - | - | 4 µg/mL
Cc1ccc(-c2c3c(N)c4c(nc3nc3c2c(C)nn3-c2ccccc2)CCCC4)cc1 | CCC 128 | broth dilution / absorbance | - | 31.2 µg/mL
O=C1C=CC(=O)N1c1ccc([N+](=O)[O-])cc1 | ATCC 10231 | broth dilution | - | 2 µg/mL
C[C@@H]1[C@H](O)[C@@H](C)/C=C/C=C/C=C/C=C/C=C/C=C/C=C/[C@H](O[C@@H]2O[C@H](C)[C@@H](O)[C@H](N)[C@@H]2O)C[C@@H]2O[C@](O)(C[C@@H](O)C[C@@H](O)[C@H](O)CC[C@@H](O)C[C@@H](O)CC(=O)O[C@H]1C)C[C@H](O)[C@H]2C(=O)O | ATCC 66396 | broth dilution | - | 0.125 µg/mL
CCc1nn([C@H](C)[C@](O)(Cn2cncn2)c2ccc(F)cc2F)c2ccc(F)cc12 | ATCC 36082 | - | - | ≤0.015 µg/mL
OC(CN1CCN(c2ccc(OCc3ccncc3)cc2)CC1)(Cn1cncn1)c1ccc(F)cc1F | FH1 | - | - | ≤0.063 µg/mL
CN=[N+]([O-])CC[C@H](N)C(=O)O | CY3003 | - | - | 83 µg/mL
CCCCN(Cc1cn(Cc2c(Cl)cccc2Cl)nn1)CC(O)(Cn1cncn1)c1ccc(F)cc1F | Y0109 | - | - | 8 µg/mL
COc1cccc(NC(=O)CN(C)CC(O)(Cn2cncn2)c2ccc(F)cc2F)c1 | - | - | - | 4 µg/mL
C[C@@H](N1CCN(Cc2cn(Cc3ccc(Cl)cc3Cl)c3c(F)cccc23)CC1)[C@](O)(Cn1cncn1)c1ccc(F)cc1F | ATCC 90028 | resazurin | - | 0.125 µg/mL
CCCCN(Cc1cn(Cc2cccc(F)c2)nn1)CC(O)(Cn1cncn1)c1ccc(F)cc1F | Y0109 | - | - | 4 µg/mL
C[C@@H](N1CCN(Cc2cn(Cc3ccc(F)cc3)c3ccccc23)CC1)[C@](O)(Cn1cncn1)c1ccc(F)cc1F | ATCC 36082 | resazurin | - | 8 µg/mL
O=C1C=CC(=O)N1CCN1CCOCC1 | ATCC 10231 | broth dilution | - | 128 µg/mL
CCN(CC)CCCC(C)Nc1c2ccc(Cl)cc2nc2ccc(OC)cc12 | SC5314 | broth dilution | biofilm | 512 µg/mL
CN1CCN(c2n[nH]c(N3C(=O)CS[C@@H]3c3ccc4c(c3)OCO4)n2)CC1 | 159.95 | broth dilution | - | 0.79 µg/mL
N=C(N)c1ccc2nc(-c3cccc(-c4nc5ccc(C(=N)N)cc5[nH]4)n3)[nH]c2c1 | A39 | - | - | >100 µg/mL
CCCCC(c1cn(Cc2ccc(Cl)cc2)c2ccc(Br)cc12)n1ccnc1 | CA980001 | - | - | 45 µg/mL
N=C(N)c1ccc2nc(CCCc3nc4ccc(C(=N)N)cc4[nH]3)[nH]c2c1 | A39 | - | - | >100 µg/mL
O=C1C=CC(=O)N1c1ccc(Br)cc1 | ATCC 10231 | broth dilution | - | 1 µg/mL
Cc1nn([C@H](C)[C@](O)(Cn2cncn2)c2ccc(F)cc2F)c2ccc(C(F)(F)F)cc12 | ATCC 36082 | - | - | ≤0.015 µg/mL
Clc1ccc(Cn2cc(Cn3ccnc3)c3ccccc32)c(Cl)c1 | CA980001 | - | - | 5 µg/mL
O=C(O/N=C(\CCn1ccnc1)c1ccccc1)c1ccccc1 | - | agar diffusion | - | 0.3919 µg/mL
COc1ccc2c(c1)CCN1C(NCCCCCC=C(C)C)NCCC21 | NFI0124 | - | - | 32 µg/mL
C[C@@H](n1nc(-c2ccccc2)c2cc([N+](=O)[O-])ccc21)[C@](O)(Cn1cncn1)c1ccc(F)cc1F | ATCC 36082 | - | - | 2 µg/mL
C[C@@H](N1CCN(Cc2cn(Cc3ccc(Cl)cc3Cl)c3ccc(C#N)cc23)CC1)[C@](O)(Cn1cncn1)c1ccc(F)cc1F | ATCC 36082 | resazurin | - | 0.25 µg/mL
Cc1c(Cn2ccnc2)c2ccccc2n1Cc1ccc(Cl)cc1 | CA980001 | - | - | 1 µg/mL
C[C@@H](c1ncncc1F)[C@](O)(Cn1cncn1)c1ccc(F)cc1F | OY-12-99 (FLU-R) | - | - | 0.5 µg/mL
Cc1nn([C@H](C)[C@](O)(Cn2cncn2)c2ccc(F)cc2F)c2ccc([N+](=O)[O-])cc12 | ATCC 36082 | - | - | 0.015 µg/mL
COc1cc(C(=O)O/N=C(\CCn2ccnc2)c2ccccc2)cc(OC)c1OC | - | agar diffusion | - | 0.3053 µg/mL
O=C1C=CC(=O)N1c1ccccc1 | ATCC 10231 | broth dilution | - | 2 µg/mL
CCC(C)CC(C)/C=C(C)/C=C/CC(C)C(O)C(C)/C=C(C)/C=C/C(O)C(C)c1cc(O)c(C2OC(CO)CC(O)C2O)c(=O)o1 | ATCC 10231 | - | - | 6.25 µg/mL
OC(Cn1cncn1)(Cn1cncn1)c1ccc(F)cc1F | ATCC 90028 (azole-susceptible) | - | - | 0.25 µg/mL
CC(c1cccs1)C(O)(Cn1ccnc1)c1ccc(Cl)cc1Cl | - | - | - | 4 µg/mL
Cc1nn([C@H](C)[C@](O)(Cn2cncn2)c2ccc(F)cc2F)c2cc(F)ccc12 | ATCC 36082 | - | - | 0.031 µg/mL
N=C(N)c1ccc(O)cc1 | A39 | - | - | >100 µg/mL
CCCCCCCCNC1NCCC2c3ccccc3CCN12 | NFI0124 | - | - | 16 µg/mL
C[C@@H](N1CCN(Cc2c[nH]c3ccccc23)CC1)[C@](O)(Cn1cncn1)c1ccc(F)cc1F | ATCC MYA-1003 | resazurin | - | 128 µg/mL
CC(C)=CCCCCCNC1NCCC2c3ccccc3CCN12 | NFI2103 | - | - | 16 µg/mL
COc1ccc(C(=O)O/N=C(\CCn2ccnc2)c2ccccc2)cc1 | - | agar diffusion | - | 0.0112 µg/mL
COc1cc(/C=C/c2ccc(O)cc2)cc(OC)c1 | 01010 | broth dilution | - | 32 µg/mL
CCCCN(Cc1cn(Cc2cccc(Cl)c2)nn1)CC(O)(Cn1cncn1)c1ccc(F)cc1F | SC5314 | - | - | <0.125 µg/mL
OC(Cn1cncn1)(Cn1cncn1)c1ccc(F)cc1F | - | agar diffusion | - | >1.63 µg/mL

For reference, 3 entries again:

CCCCN(Cc1cn(Cc2ccc([N+](=O)[O-])cc2)nn1)CC(O)(Cn1cncn1)c1ccc(F)cc1F ; strain or isolate: SC5314 ; result: 2 µg/mL
COc1ccc(C(=O)O/N=C(\CCn2ccnc2)c2ccccc2)cc1 ; read by: agar diffusion ; result: 0.0112 µg/mL
CCCCN(Cc1cn(Cc2ccccc2[N+](=O)[O-])nn1)CC(O)(Cn1cncn1)c1ccc(F)cc1F ; strain or isolate: Y0109 ; result: 4 µg/mL